Compound potency records, mixed from different reports. Data source: NIAID ChemDB in PubChem.

ICn: concentration for n% inhibition. Inhibition is in % at the dose shown (toxicity tests: loss of growth or viability). Conditions beyond the fields shown may differ between rows. A number after MIC or MFC names an inhibition level or a share of isolates. Blank or dashed fields: not listed here. CCn is the concentration with n% toxicity to the cells. ECn: concentration that inhibits the pathogen or its effect by n%.

| structure | measure | organism | dose | method | kind | target | strain | cell line | result |
|---|---|---|---|---|---|---|---|---|---|
| Oc1ccccc1C=Nc1ccccc1O | MIC99 | Cryptococcus gattii | - | - | culture | - | LMM 818 | - | 8 µg/mL |
| CCOC(=O)c1ccc(OCCC2CCN(c3ccc(C)nn3)CC2)cc1 | EC50 | Rhinovirus | - | neutral red | culture | - | 1059 (ICAM-1 receptor group 14) | KB | 0.027 µM |
| Cc1nc(NCCCCNc2ccnc3cc(Cl)ccc23)nc(-c2ccccc2[N+](=O)[O-])c1C(=O)OC(C)C | MIC99 | Cryptococcus gattii | - | - | culture | - | LMM 818 | - | 11.3 µg/mL |
| CC(=O)N[C@H]1[C@H]([C@H](O)[C@H](O)CO)OC(C(=O)O)=C[C@@H]1N=C(N)N | EC50 | Influenza A virus | - | visual reading | culture | - | H1N1 A/PR/8/34 | MDCK | 0.3 µM |
| COc1ccc(N2CCN(c3cncc(-c4csc5ccccc45)n3)CC2)cc1 | IC50 | Cytomegalovirus | - | - | target | UL97 kinase | - | - | <10 µM |
| CN(C)C(=O)c1cccc(-c2cc(=O)n(O)c3ncccc23)c1 | CC50 | - | - | - | toxicity | - | - | HeLa | <100 µM |
| Oc1ccccc1N=Cc1ccccc1 | MIC99 | Cryptococcus gattii | - | - | culture | - | ATCC 24065 | - | 8 µg/mL |
| Nc1ccc2c(O)cc(S(=O)(=O)[O-])cc2c1S(=O)(=O)[O-] | inhibition | Herpes simplex virus | 10 µg/mL | cytopathic effect | culture | - | - | Human amnion AV3 cells | 0% |
| O=[N+]([O-])c1ccc(C=Nc2ccccc2O)cc1 | MIC | Cryptococcus neoformans | - | broth dilution | culture | - | 96806 | - | 11.3 µg/mL |
| Cc1cc(-c2ccc(N=Nc3c(S(=O)(=O)O)cc4cc(S(=O)(=O)O)cc(N)c4c3O)c(C)c2)ccc1N=Nc1c(S(=O)(=O)O)cc2cc(S(=O)(=O)O)cc(N)c2c1O | inhibition | Adenovirus | 5 µg/mL | cytopathic effect | culture | - | TYPE 3 | Human amnion AV3 cells | 0% |
| c1ccc(N2CCN(c3cncc(-c4cccc5ccccc45)n3)CC2)cc1 | inhibition | Cytomegalovirus | 10 µM | - | target | UL97 kinase | - | - | >15% |
| C=CCc1ccc(OC)c(OC)c1 | MIC90 | Candida tropicalis | - | turbidity | culture | - | 2852 | - | 350 µg/mL |
| FC(F)(F)c1ccc(-c2cncc(N3CCN(c4ccccc4)CC3)n2)cc1 | IC50 | Cytomegalovirus | - | - | target | UL97 kinase | - | - | <10 µM |
| Oc1ccccc1N=Cc1cccc(O)c1O | MIC99 | Cryptococcus gattii | - | - | culture | - | 196L/03 | - | 5.7 µg/mL |
| O=S(=O)(O)c1cc(O)c2c(O)cc(S(=O)(=O)O)cc2c1 | inhibition | Herpes simplex virus | 10 µg/mL | cytopathic effect | culture | - | - | Human amnion AV3 cells | 0% |
| Fc1ccc(-c2cncc(N3CCN(c4cccc(Cl)c4)CC3)n2)cc1Cl | inhibition | Cytomegalovirus | 10 µM | - | target | UL97 kinase | - | - | >15% |
| O=S(=O)(O)c1cc(O)c2c(O)c(N=Nc3ccccc3)c(S(=O)(=O)O)cc2c1 | inhibition | Adenovirus | 5 µg/mL | cytopathic effect | culture | - | TYPE 3 | Human amnion AV3 cells | 0% |
| Oc1ccc(O)c(C=Nc2ccccc2O)c1 | MIC99 | Cryptococcus gattii | - | - | culture | - | LMM 818 | - | 8 µg/mL |
| Fc1ccc(-c2cncc(N3CCN(c4ccccn4)CC3)n2)cc1 | inhibition | Cytomegalovirus | 1 µM | - | target | UL97 kinase | - | - | <50% |
| Cc1cc(CCCOc2c(C)cc(-c3noc(C(F)(F)F)n3)cc2C)on1 | EC50 | Rhinovirus | - | cytopathic effect / visual reading | culture | - | Isolate 17 | OHIO HELA-I | >1 µg/mL |
| O=C(c1cccc(-c2cc(=O)n(O)c3ncccc23)c1)N1CCOCC1 | CC50 | - | - | - | toxicity | - | - | HeLa | <100 µM |
| COc1ccc(OC)c(-c2cncc(N3CCN(c4ccc(OC)c(OC)c4)CC3)n2)c1 | IC50 | Cytomegalovirus | - | - | target | UL97 kinase | - | - | <100 µM |
| O=C(Nc1ccc2c(O)c(N=Nc3ccc(N=Nc4ccc(S(=O)(=O)O)cc4)cc3)c(S(=O)(=O)O)cc2c1)c1ccccc1 | inhibition | Adenovirus | 50 µg/mL | cytopathic effect | culture | - | TYPE 3 | Human amnion AV3 cells | 0% |
| O=c1c(-c2ccccc2)c(O)c2cccnc2n1O | CC50 | - | - | - | toxicity | - | - | HeLa | <100 µM |
| O=S(=O)([O-])c1cccc(O)c1 | inhibition | Herpes simplex virus | 5 µg/mL | cytopathic effect | culture | - | - | Human amnion AV3 cells | 19% |
| Fc1ccc(N2CCCCC2)c(NC(=S)c2ccncc2)c1 | inhibition | - | 10 µM | kinase activity | host protein | LOK | - | - | 34% |
| O=S(=O)(O)c1ccc(N=Nc2c(O)ccc3cc(S(=O)(=O)O)ccc23)cc1 | inhibition | Herpes simplex virus | 5 µg/mL | cytopathic effect | culture | - | - | Human conjunctiva cells | 0% |
| Oc1ccccc1N=Cc1ccc(F)cc1 | MIC99 | Cryptococcus gattii | - | - | culture | - | LMM 818 | - | 5.7 µg/mL |
| CCOC(=O)c1c(O)c2cc(C(=O)N3CCC(CCc4ccccc4)CC3)cnc2n(O)c1=O | CC50 | - | - | - | toxicity | - | - | HeLa | <100 µM |
| Nc1cc(S(=O)(=O)[O-])cc2cc(S(=O)(=O)[O-])ccc12 | inhibition | Adenovirus | 10 µg/mL | cytopathic effect | culture | - | TYPE 3 | Human embryonic lung cells | 0% |